How the values were obtained:
Format in all cases: cell-based
[1] = test system: USA WA-01 strain of SARS CoV-2; assay: Example 2 anti-coronavirus activity in Vero E6 cells (qPCR spike RNA); conditions: CC50/EC50, Vero E6 cells
Description: Ten thousand Vero E6 cells were seeded in 100 microliters of culture medium in 96 well plates. The following day serial two-fold dilutions of antiviral compounds or the DMSO-containing vehicle were added to each well. The USA WA-01 strain of SARS CoV-2 was added to each well at a multiplicity of infection of 0.1 thirty minutes later. Cells were incubated for 48 hours, washed twice in PBS and lysed with TRIzol. RNA was extracted using Directzol micro RNA columns. RNA was made into cDNA and assayed for the SARS CoV-2 spike protein and for a housekeeping gene (RPLPO) RNA by qPCR. Data represents the average of duplicate wells. Cellular cytotoxicity was also measured in VERO E6 cells. […] Cytotoxicity (CC50) was assessed using a commercially available MTT assay.

[2] = test system: SARS-CoV-2 isolate USA-WA1/2020; assay: Example 3 SARS-CoV-2 infection in Vero E6 cells (qRT-PCR Spike RNA); conditions: Selectivity index, CC50/EC50, Vero E6 cells
[3] = test system: SARS-CoV-2 isolate USA-WA1/2020; assay: Example 7 SARS-CoV-2 infection in Vero E6 cells (qRT-PCR); conditions: Selectivity index CC50/EC50, Vero E6 cells
[4] = test system: SARS-CoV-2 isolate USA-WA1/2020; assay: Example 7 SARS-CoV-2 infection in PSC-human lung cells (qRT-PCR); conditions: Selectivity index CC50/EC50, PSC-human lung cells
[5] = test system: SARS-CoV-2 isolate USA-WA1/2020; assay: Example 7 SARS-CoV-2 infection in Calu-3 cells (qRT-PCR); conditions: Selectivity index CC50/EC50, Calu-3 cells
[6] = test system: SARS-CoV-2 isolate USA-WA1/2020; assay: Example 7 SARS-CoV-2 infection in Huh7.5 cells (qRT-PCR); conditions: Selectivity index CC50/EC50, Huh7.5 cells
[7] = test system: SARS-CoV-2 isolate USA-WA1/2020; assay: Example 7 SARS-CoV-2 infection in Caco-2 cells (qRT-PCR); conditions: Selectivity index CC50/EC50, Caco-2 cells

CCCCCCCCCCCCCCCCCCOC[C@H](COP(=O)(O)OC[C@H]1O[C@@](C#N)(c2ccc3c(N)ncnn23)[C@H](O)[C@@H]1O)OCc1ccccc1 [Compound 15d, 1-O-octadecyl-2-O-benzyl-glyceryl-sn-3-phospho-RVn]
Selectivity Index [1]: >238
Selectivity [2]: 240
Selectivity [3]: 699
Selectivity [4]: 410
Selectivity [5]: 327
Selectivity [6]: 449
Selectivity [7]: 295

Source: patent US12173029B2, “Antiviral prodrugs, pharmaceutical formulations, and methods” (priority 2020, dated 2024)
